Experimental data: PubChem BioAssay AID624099 (ICCB-Longwood, 2012)

Test: 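Knock-downs relieving repression by E2 of an HPV18 LCR luciferase reporter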 (primary screen)
Cells: human C33A cervical carcinoma cells (HPV-negative) stably expressing BPV1 E2 and an HPV18 LCR luciferase reporter
Reagent: siRNA pool against human genes, 40 nM
Time to read-out: 72 h
Measurement: 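Per-well luciferase luminescence, z-scored on each plate against the plate mean and SD with control wells left out, then averaged across three replicate plates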
Scale: mean z-score and z-score: higher = stronger reporter signal, weaker E2 silencing
Rule for the call: 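Mean z ≥ 2 together with z ≥ 2 in two or more of the three replicates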
Here is a random part of about 21,000 reagents tested. Over the whole deposit, 497 (2.4%) were called active. 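Higher z means weaker E2 silencing; only reporter increases were scored, and knock-downs that hurt cell survival may mask genuine repressor factors.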 Entries without a mark were called inactive. Reagents against one gene are numbered here.

The opening 2 records as a preview:
| gene knocked down | reagent no. | mean z-score | z-score, replicate A | z-score, replicate B | z-score, replicate C |
| --- | --- | --- | --- | --- | --- |
| SPARCL1 (SPARC like 1) | 1 | -0.55 | -0.53 | -0.45 | -0.67 |
| SERPINA4 (serpin family A member 4) | 1 | -0.48 | -0.31 | -0.47 | -0.65 |

The listing, from the start:
| gene knocked down | reagent no. | mean z-score | z-score, replicate A | z-score, replicate B | z-score, replicate C |
| --- | --- | --- | --- | --- | --- |
| SPARCL1 (SPARC like 1) | 1 | -0.55 | -0.53 | -0.45 | -0.67 |
| SERPINA4 (serpin family A member 4) | 1 | -0.48 | -0.31 | -0.47 | -0.65 |
| SERP2 | 1 | -0.15 | 0 | 0.09 | -0.53 |
| LOC402670 (retired record) | 1 | -0.54 | -0.49 | -0.81 | -0.32 |
| TNF (tumor necrosis factor) | 1 | 0.2 | -0.1 | 0.3 | 0.39 |
| PDCD10 (programmed cell death 10) | 1 | 0.81 | 1.71 | 0.59 | 0.13 |
| DEFB103B (defensin beta 103B) | 1 | 0.58 | 0.21 | 0.73 | 0.81 |
| PDK2 (pyruvate dehydrogenase kinase 2) | 1 | -0.76 | -0.79 | -0.35 | -1.13 |
| C10orf1 (retired record) | 1 | 1.37 | 1.92 | 0.97 | 1.22 |
| CATSPERG (catsper channel auxiliary subunit gamma) | 1 | -1.38 | -1.26 | -1.51 | -1.38 |
| NPY (neuropeptide Y) | 1 | -0.37 | -0.37 | -0.21 | -0.54 |
| ISY1 (ISY1 spliceosome associated protein) | 1 | 1.84 | 1.65 | 1.52 | 2.34 |
| GPBP1 (GC-rich promoter binding protein 1) | 1 | -0.45 | -0.53 | -0.66 | -0.18 |
| LOC402687 (retired record) | 1 | -0.18 | -0.34 | 0 | -0.2 |
| ATP1A3 (ATPase Na+/K+ transporting subunit alpha 3) | 1 | 0.19 | -0.1 | 0.25 | 0.41 |
| RPRD1B (regulation of nuclear pre-mRNA domain containing 1B) | 1 | 0.32 | 0.72 | 0.29 | -0.04 |
| INTS4P1 (integrator complex subunit 4 pseudogene 1) | 1 | 1.13 | 0.97 | 1.25 | 1.16 |
| FSIP1 (fibrous sheath interacting protein 1) | 1 | 2.21 (active) | 1.5 | 2.31 | 2.81 |
| DEF8 (differentially expressed in FDCP 8 homolog) | 1 | -0.87 | -1.05 | -1.03 | -0.53 |
| ZNF443 (zinc finger protein 443) | 1 | 0.36 | 0.7 | -0.09 | 0.47 |
| CBL (Cbl proto-oncogene) | 1 | -0.65 | -0.38 | -0.81 | -0.76 |
| H2AC25 (H2A clustered histone 25) | 1 | -0.33 | -0.03 | -0.3 | -0.65 |
| LOC389534 (retired record) | 1 | -0.47 | -0.26 | -0.71 | -0.42 |
| LOC388565 (retired record) | 1 | 0.68 | 0.55 | 0.88 | 0.6 |
| SLC22A12 | 1 | -1.38 | -1.32 | -1.31 | -1.53 |
| CASKIN2 (CASK interacting protein 2) | 1 | 0.28 | 0.15 | 0.52 | 0.18 |
| COL9A3 (collagen type IX alpha 3 chain) | 1 | 0.6 | 0.53 | 0.56 | 0.71 |
| ZNF804B (zinc finger protein 804B) | 1 | 1.65 | 1.51 | 1.67 | 1.77 |
| TMEM259 (transmembrane protein 259) | 1 | -1.43 | -1.4 | -1.34 | -1.56 |
| SYVN1 (synoviolin 1) | 1 | -0.95 | -0.84 | -1.05 | -0.96 |
| EFNB1 (ephrin B1) | 1 | -1.62 | -1.62 | -1.67 | -1.56 |
| URGCP (upregulator of cell proliferation) | 1 | 0.03 | -0.2 | -0.07 | 0.36 |
| PDHB (pyruvate dehydrogenase E1 subunit beta) | 1 | 0.89 | 0.58 | 1.17 | 0.93 |
| ZNF569 (zinc finger protein 569) | 1 | 0.73 | 1.29 | 0.2 | 0.71 |
| MSMB (microseminoprotein beta) | 1 | 0.62 | 0.48 | 0.48 | 0.89 |
| FMO3 (flavin containing dimethylaniline monoxygenase 3) | 1 | 0.19 | 0.22 | 0.13 | 0.24 |
| WDR45 (WD repeat domain 45) | 1 | -0.33 | -0.34 | -0.4 | -0.24 |
| LOC391405 (retired record) | 1 | -1.54 | -1.37 | -1.6 | -1.65 |
| LOC389055 (retired record) | 1 | -0.01 | 0 | -0.21 | 0.19 |
| SGCA (sarcoglycan alpha) | 1 | 0.18 | 0.15 | 0.17 | 0.21 |
| NKAPD1 (NKAP domain containing 1) | 1 | 0.04 | -0.18 | -0.03 | 0.35 |
| PGGT1B (protein geranylgeranyltransferase type I subunit beta) | 1 | -1.67 | -1.8 | -1.96 | -1.26 |
| TRIM47 (tripartite motif containing 47) | 1 | 1.13 | 0.9 | 1.02 | 1.46 |
| STAM2 (signal transducing adaptor molecule 2) | 1 | 0.63 | 0.82 | 0.43 | 0.64 |
| LNCRI (lncRNA radiation induced regulator of PLK1 and RAD51) | 1 | 0.4 | 0.54 | 0.39 | 0.26 |
| COMMD1 (copper metabolism domain containing 1) | 1 | -1.22 | -0.85 | -1.5 | -1.31 |
| METTL2B (methyltransferase 2B, tRNA N3-cytidine) | 1 | -1.46 | -1.6 | -1.38 | -1.39 |
| ASMTL-AS1 (ASMTL antisense RNA 1) | 1 | 1.54 | 1.11 | 1.97 | 1.53 |
| BORA (BORA aurora kinase A activator) | 1 | 0.96 | 2.05 | 0.82 | 0 |
| DCDC1 (doublecortin domain containing 1) | 1 | 0.98 | 1.13 | 0.82 | 0.98 |
| DCDC1 (doublecortin domain containing 1) | 2 | 0.53 | 0.77 | 0.66 | 0.18 |
| DCAF17 (DDB1 and CUL4 associated factor 17) | 1 | -0.01 | -0.28 | -0.04 | 0.28 |
| ATP9B (ATPase phospholipid transporting 9B) | 1 | -0.86 | -0.91 | -0.81 | -0.84 |
| OR2AE1 (olfactory receptor family 2 subfamily AE member 1) | 1 | -0.53 | -0.64 | -0.22 | -0.73 |
| TBC1D28 (TBC1 domain family member 28) | 1 | 0.57 | 0.22 | 0.53 | 0.95 |
| PRND (prion like protein doppel) | 1 | -1.65 | -1.63 | -1.45 | -1.86 |
| ZNF580 (zinc finger protein 580) | 1 | 0.7 | 0.81 | 0.26 | 1.02 |
